Results of unrelated studies side by side (data: NIAID ChemDB).

All rows: whole-cell or culture tests; species: Mycobacterium tuberculosis

"inactive" is the filed call at that dose; no cut-off is given. ECn is the concentration giving n% inhibition of infection, replication or growth. Neighbouring rows are from separate reports. A number after MIC or MFC names an inhibition level or a share of isolates. Blank or dashed fields: not listed here. Percent inhibition refers to the dose given; in toxicity tests it is the harm to the cells. MIC bound comes from a single tested concentration.

structure,strain,mutations,read by,read-out,tested at,value
COC(=O)c1nc(N)nc(C(=O)OC)c1C(=O)c1ccc(N2CCN(c3ccc(C(=O)c4c(C(=O)OC)nc(N)nc4C(=O)OC)cc3)CC2)cc1,H37Rv,,BACTEC,inhibition,12.5 µg/mL,0%
CC(C)(C)c1ccc(CNc2ccccc2C2=NCCN2)cc1,103471,,,MIC,,1 µg/mL
NCC[C@H](O)C(=O)N[C@@H]1C[C@H](N)[C@@H](O[C@H]2O[C@H](CN)[C@@H](O)[C@H](O)[C@H]2O)[C@H](O)[C@H]1O[C@H]1O[C@H](CO)[C@@H](O)[C@H](N)[C@H]1O,4S,,,MIC,,2.5 µg/mL
COc1ccc(-c2cc(CN3CCOCC3)c(C)n2-c2ccc(C(C)C)cc2)cc1,H37Rv,,,MIC90,,17.1 µM
CC(C)(C)c1ccc(CNc2ccc(N3CCOCC3)cc2)cc1,103471,,,MIC,,4 µg/mL
O=c1oc2nc(-c3ccccc3)[nH]c(=O)c2c2c1CCCC2,H37Rv,,BACTEC,MIC bound,,>12.5 µg/mL
O=C(Nc1sc(-c2ccc(OCc3ccccc3Cl)cc2)cc1C(=O)O)c1ccc(Cl)cc1,H37Rv,,resazurin,EC50,,84.31 µM
CN(C)CCn1ncc(Sc2cc([N+](=O)[O-])ccc2N)c(Cl)c1=O,H37Rv,,BACTEC,inhibition,12.5 µg/mL,5%
CC1=CC[C@]2(C)CC[C@]3(C)C(CCC4[C@@]5(C)CC[C@H](O)C(C)(C)C5CC[C@]43C)C2[C@@H]1C,H37Rv,,,MIC,,>64 µg/mL
CCc1ccc(-c2cc(CN3CCOCC3)c(C)n2-c2ccc(F)cc2)cc1,H37Rv DR2,V681I,,MIC,,0.66 µM
O=C(Nc1sc(-c2ccc(OCc3c(Cl)cccc3Cl)cc2)cc1C(=O)O)c1ccco1,H37Rv,,resazurin,MIC,,36.6 µM
CCc1ccc(-n2c(-c3ccc(Cl)cc3)cc(CN3CCOCC3)c2C)cc1,H37Rv,,,MIC90,,16.83 µM
CC(C)(C)OC(=O)N[C@@H](CO)C(=O)N/N=C/c1ccc(O)cc1O,H37Rv,,resazurin,MIC,,>100 µg/mL
CO[C@H]1C=C(C)[C@@H](C)[C@H]2[C@H]3CCC4[C@@]5(C)CC[C@H](O)C(C)(C)[C@@H]5CC[C@@]4(C)[C@]3(C)C[C@H](O)[C@]21C,H37Rv,,,MIC,,32 µg/mL
CC(C)c1ccc2c(c1)CCC1[C@@](C)(CO)CCC[C@@]21C,H37Rv (ATCC 27294),,,MIC,,32 µg/mL
CC(C)(C)OC(=O)N1CCC2(CC1)CC(=O)c1cc(C(=O)/C=C/c3ccc(F)cc3)c(O)cc1O2,H37Rv,,agar,MIC,,6.25 µg/mL
CCOC(=O)CSc1nc2nc(Cl)c(Cl)nc2[nH]1,H37Rv,,resazurin,inhibition,6.25 µg/mL,15%
O=C(N[C@@H](CO)C(=O)N/N=C/c1ccc(O)c(O)c1)OCc1ccccc1,H37Rv,,resazurin,MIC,,>100 µg/mL
O=C(O)c1cnccn1,H37Ra,,,inhibition,6.2 µg/mL,0%
Cc1cc(CN2CCN(C)CC2)c(C)n1Cc1ccccc1,103471,,,MIC,,8 µg/mL
COc1ccc(/C=C/C(=O)c2cc3c(cc2O)OC2(CCN(C(=O)OC(C)(C)C)CC2)CC3=O)cc1,H37Rv,,agar,MIC,,25 µg/mL
CC(C)(C)c1ccc(CNc2ccc(N3CCSCC3)cc2)cc1,103471,,,MIC,,2 µg/mL
CCOC(=O)c1c(C(=O)OCC)c(C)n(/N=N/n2c(C)c(C(=O)OCC)c(C(=O)OCC)c2C)c1C,H37Rv,,BACTEC,inhibition,12.5 µg/mL,0%
CS/C(N)=N/NC(=O)c1ccc(Cl)cc1Cl,H37Rv,,,MIC,,>100 µg/mL
CC(C)(C)OC(=O)N1CCC2(CC1)CC(=O)c1cc(C(=O)/C=C/c3ccccc3F)c(O)cc1O2,H37Rv,,agar,MIC,,3.13 µg/mL
O=C(Nc1sc(-c2ccc(OCc3c(Cl)cccc3Cl)cc2)cc1C(=O)O)c1ccccc1Cl,H37Rv,,resazurin,EC50,,88.56 µM
N/C(=N\NC(=O)c1ccc([N+](=O)[O-])cc1)SCc1cccc(Cl)c1,H37Rv,,,MIC,,>100 µg/mL
Cc1ccc(NC(=S)SCc2ccc(Cl)cc2)cc1Cl,H37Rv,,BACTEC,MIC bound,,>12.5 µg/mL
C=C[C@]1(C)C=C2[C@H](O)C[C@@H]3C(C)(CCC[C@@]3(C)CO)[C@H]2CC1,ITM3526,,,inhibition,100 µg/mL,inactive
Cc1cc(CN2CCN(C)CC2)c(C)[nH]1,103471,,,MIC,,>64 µg/mL
COc1ccc2c(c1OC)C(O)N1CCc3cc4c(cc3C1=C2C(=O)c1ccccc1)OCO4,H37Rv,,BACTEC,MIC,,≥12.5 µg/mL
CCCCCCCCCCCCCC(=O)OCC1OC(O[C@H]2CC[C@@]3(C)C(=CCC4C3CC[C@@]3(C)C4CC[C@@H]3[C@H](C)CC[C@@H](CC)C(C)C)C2)C(O)C(O)C1O,H37Rv (ATCC 27294),,,MIC,,32 µg/mL
COc1cc2cc3c4cc(OC)c(OC)cc4cc[n+]3c(CCC(=O)O)c2cc1OC.O=C(O)CC(C(=O)O)S(=O)(=O)O,H37Rv,,BACTEC,MIC bound,,>12.5 µg/mL
N/C(=N\NC(=O)c1ccc(F)cc1)SCc1cccc(Cl)c1,H37Rv,,,MIC,,>100 µg/mL
C=C1CC[C@]2(C)CC[C@]3(C)C(CCC4[C@@]5(C)CC[C@H](O)C(C)(C)C5CC[C@]43C)C2[C@@H]1C,H37Rv,,,MIC,,64 µg/mL
CC(=O)c1ccc(NC(=O)/C(CC(=O)c2sc(-c3cccnc3)nc2C)=N\NC(N)=O)cc1,H37Rv,,BACTEC,inhibition,12.5 µg/mL,0%
CC1(C)CC[C@]2(C)CC[C@]3(C)C(=CC[C@@H]4[C@@]5(C)CC[C@H](O)C(C)(C)[C@@H]5CC[C@]43C)[C@@H]2C1,H37Rv,,,MIC,,>64 µg/mL
CCCCCCn1c(-c2ccc(Cl)cc2)cc(CN2CCN(C)CC2)c1C,103471,,,MIC,,8 µg/mL
COc1ccccc1C(=O)Nc1sc(-c2ccc(OCc3c(Cl)cccc3Cl)cc2)cc1C(=O)O,H37Rv,,resazurin,EC50,,50.66 µM
COc1ccccc1NC(=O)C(N=Nc1ccc(-c2nc3ccc(C)c(S(=O)(=O)O)c3s2)cc1S(=O)(=O)O)C(C)=O,H37Rv,,BACTEC,inhibition,12.5 µg/mL,-15%
O=C(O)c1cc(-c2ccc(OCc3c(Cl)cccc3Cl)cc2)sc1NCc1ccccc1Cl,H37Rv,,resazurin,EC50,,28.05 µM
CS/C(N)=N/NC(=O)c1ccc(Cl)cc1,H37Rv,,,MIC,,>100 µg/mL
Cc1[nH]c(-c2ccc(Cl)cc2)c(CN2CCOCC2)c1CN1CCOCC1,103471,,,MIC,,>64 µg/mL
C=CCNc1sc(-c2ccc(OCc3c(Cl)cccc3Cl)cc2)cc1C(=O)O,H37Rv,,resazurin,EC50,,27.53 µM
Cc1ccc(-c2cc(CN3CCOCC3)c(C)n2-c2ccc(F)cc2)cc1,H37Rv DR4,V681I V581A N365S,,MIC,,5.4 µM
COc1ccc(/C=N/NC(=O)[C@H](CO)NC(=O)OCc2ccccc2)c(O)c1,H37Rv,,resazurin,MIC,,>100 µg/mL
CCC(C)[C@H]1OC(=O)[C@H](Cc2ccccc2)N(C)C(=O)[C@@H](C(C)C)OC(=O)[C@H](Cc2ccccc2)N(C)C(=O)[C@@H](C(C)C)OC(=O)[C@H](Cc2ccccc2)N(C)C1=O,H37Ra,,,MIC,,25 µg/mL
Cc1c(CN2CCN(C)CC2)c(CN2CCN(C)CC2)c(C)n1C1CCCCC1,103471,,,MIC,,>64 µg/mL
O=C1N(Cl)C2(c3ccccc3)N(Cl)C(=O)N(Cl)C2(c2ccccc2)N1Cl,H37Rv,,resazurin,MIC bound,,>6.25 µg/mL
CS/C(N)=N/NC(=O)c1ccc(F)cc1,H37Rv,,,MIC,,>100 µg/mL
CC(C)(C)OC(=O)N1CCC2(CC1)CC(=O)c1cc(C(=O)/C=C/c3ccccc3Cl)c(O)cc1O2,H37Rv,,agar,MIC,,12.5 µg/mL
Cc1ccc(C(=O)NNC(N)=S)cc1,H37Rv,,,MIC,,>100 µg/mL
CC(C)=CCCC(C)[C@H]1CC[C@]2(C)C3=CC[C@@H]4[C@H](CC[C@H](O)C4(C)C)[C@H]3CC[C@@]12C,H37Rv,,,MIC,,>64 µg/mL
CNC1CCCN(c2c(F)cc3c(=O)c(C(=O)O)cn(C4CC4)c3c2OC)C1,100 isolates,,,MIC50,,1 µg/mL
CC1=NN(C(=O)CC(=O)NC(=O)CC(=O)Nc2ccccc2F)C(=O)C1N=Nc1ccc([N+](=O)[O-])cc1,H37Rv,,BACTEC,inhibition,12.8 µg/mL,5%
C=C(CCC(C)[C@H]1CC[C@@]2(C)[C@@H]3CC[C@H]4C(C)(C)[C@@H](O)CCC45CC35CC[C@]12C)C(C)C,H37Rv,,,MIC,,64 µg/mL
COc1cc2nc3occc3c(OC)c2c2c1OC(C)(C)C=C2,H37Rv,,resazurin,inhibition,6.25 µg/mL,0%
CC[C@H](CC[C@@H](C)[C@H]1CC[C@H]2[C@@H]3CC=C4C[C@@H](O)CC[C@]4(C)[C@H]3CC[C@]12C)C(C)C,H37Rv (ATCC 27294),,,MIC,,>128 µg/mL
C=C(C)[C@@H]1CC[C@@]2(C)[C@H]1[C@H]1CC[C@@H]3[C@@]4(C)CC[C@H](O)C(C)(C)[C@@H]4CC[C@@]3(C)[C@]1(C)C[C@@H]2O,H37Rv,,,MIC,,64 µg/mL
CCCCCCCCN1CSC(=S)N(c2ccc3[nH]c(=S)sc3c2)C1,H37Rv,,BACTEC,inhibition,12.5 µg/mL,1%
COc1ccc(C(=O)Nc2sc(-c3ccc(OCc4c(Cl)cccc4Cl)cc3)cc2C(=O)O)cc1,H37Rv,,resazurin,EC50,,>128 µM
COc1cccc(/C=N/NC(=O)[C@H](CO)NC(=O)OCc2ccccc2)c1O,H37Rv,,resazurin,MIC,,100 µg/mL
CC1(C)CC[C@]2(CO)CC[C@]3(C)C(=CCC4[C@@]5(C)CC[C@H](O)C(C)(C)C5CC[C@]43C)C2C1,H37Rv,,,MIC,,>64 µg/mL
C[C@@H]1CC[C@]2(C(=O)O)CCC3C(=CCC4[C@@]3(C)CCC3C(C)(C)[C@H](O)CC[C@@]34C)C2[C@H]1C,H37Rv (ATCC 27294),,,MIC,,8 µg/mL
O=C(NCc1ccccc1)C1C(=O)N(Cc2ccccc2)C(=O)/C1=N\O,H37Rv,,resazurin,MIC bound,,>6.25 µg/mL
CO[C@H]1/C=C/O[C@@]2(C)Oc3c(C)c(O)c4c(O)c(c(/C=N/N5CCN(C)CC5)c(O)c4c3C2=O)NC(=O)/C(C)=C\C=C\[C@H](C)[C@H](O)[C@@H](C)[C@@H](O)[C@@H](C)[C@H](OC(C)=O)[C@@H]1C,TN1811,,,MIC,,>32 µg/mL
[N-]=[N+]=CC(=O)CC[C@H](NC(=O)OCc1ccccc1)C(=O)OCc1ccccc1,H37Rv,,resazurin,MIC,,0.78 µg/mL
N#Cc1cccc(/C=N/NC(=O)[C@H](CO)NC(=O)OCc2ccccc2)c1,H37Rv,,resazurin,MIC,,50 µg/mL
O=C(N=Nc1c(O)[nH]c2c(Cl)cc(Cl)cc12)C(=O)Nc1cccc(C(F)(F)F)c1,H37Rv,,BACTEC,inhibition,12.5 µg/mL,-21%
C=C1CC[C@@]2(C)[C@@H]([C@@H]1C)[C@H]1CCC3[C@@]4(C)CC[C@H](O)C(C)(C)[C@@H]4CC[C@@]3(C)[C@]1(C)C[C@@H]2O,H37Rv,,,MIC,,16 µg/mL
COc1ccc(-c2cc(C(=O)NN=Cc3ccc([N+](=O)[O-])cc3)c3ccc(C)cc3n2)cc1OC,H37Rv,,BACTEC,inhibition,12.5 µg/mL,61%
C[C@H]1COc2c(N3CCN(C)CC3)c(F)cc3c(=O)c(C(=O)O)cn1c23,2S,,,MIC,,0.5 µg/mL
O=C(N/N=C/c1cc(=O)[nH]c(=O)[nH]1)c1ccccc1,H37Rv,,BACTEC,MIC bound,,>12.5 µg/mL
COc1cccc(/C=N/NC(=O)[C@H](CO)NC(=O)OC(C)(C)C)c1O,H37Rv,,resazurin,MIC,,>100 µg/mL
C=C[C@@](C)(O)CC/C=C(/C)CCC=C(C)C,H37Rv,,,inhibition,6.25 µg/mL,2%
NNC(=O)c1ccncc1,H37Rv,,resazurin,MIC,,0.2 µM

Repeating the first 4 entries:

structure,strain,mutations,read by,read-out,tested at,value
COC(=O)c1nc(N)nc(C(=O)OC)c1C(=O)c1ccc(N2CCN(c3ccc(C(=O)c4c(C(=O)OC)nc(N)nc4C(=O)OC)cc3)CC2)cc1,H37Rv,,BACTEC,inhibition,12.5 µg/mL,0%
CC(C)(C)c1ccc(CNc2ccccc2C2=NCCN2)cc1,103471,,,MIC,,1 µg/mL
NCC[C@H](O)C(=O)N[C@@H]1C[C@H](N)[C@@H](O[C@H]2O[C@H](CN)[C@@H](O)[C@H](O)[C@H]2O)[C@H](O)[C@H]1O[C@H]1O[C@H](CO)[C@@H](O)[C@H](N)[C@H]1O,4S,,,MIC,,2.5 µg/mL
COc1ccc(-c2cc(CN3CCOCC3)c(C)n2-c2ccc(C(C)C)cc2)cc1,H37Rv,,,MIC90,,17.1 µM